Results of unrelated studies side by side (data: NIAID ChemDB).

Common to all: target-level tests; species: Plasmodium falciparum

Conditions beyond the fields shown may differ between rows.

SMILES	read by	protein	measure	result
O=C(N[C@@H](Cc1ccccc1)C(=O)N[C@H](/C=C/S(=O)(=O)c1ccccc1)CCc1ccccc1)C1CCC2(CC1)OOC1(OO2)C2CC3CC(C2)CC1C3	fluorescence	Falcipain-2	IC50	9.784 µM
O=C(CCC(c1ccccc1)P(=O)(O)O)NO	absorbance	PfDXR	Ki	0.0021 µM
CC(C)C[C@H](NC(=O)CC1CCC2(CC1)OOC1(OO2)C2CC3CC(C2)CC1C3)C(=O)N[C@H](/C=C/S(=O)(=O)c1ccccc1)CCc1ccccc1	fluorescence	Falcipain-2	IC50	8.739 µM
O=C(CN1C(=O)SC(=Cc2ccccc2Cl)C1=O)N1CCN(c2ccccc2)CC1	fluorescence	Falcipain-2	IC50	15.8 µM
CC(C)C[C@H](NC(=O)C1CCC2(CC1)OOC1(CCCCC1)OO2)C(=O)N[C@H](/C=C/S(=O)(=O)c1ccccc1)CCc1ccccc1	fluorescence	Falcipain-2	IC50	0.9648 µM
COc1cc(OC)c(C=C2SC(=O)N(C34CC5CC(CC(C5)C3)C4)C2=O)c(OC)c1	fluorescence	Falcipain-2	IC50	29.08 µM
CN(O)C(=O)CCC(c1ccccc1)P(=O)(O)O	absorbance	PfDXR	IC50	0.0031 µM
CCOP(=O)(CC(=O)Nc1cccc(Br)c1)OCC	absorbance	PfDXR	IC50	>500 µM
O=C(CN1C(=O)SC(=Cc2ccc(F)cc2)C1=O)N1CCN(c2ccccc2)CC1	fluorescence	Falcipain-2	IC50	>50 µM
CC1(C)OC(=O)C(=Cc2ccccc2[N+](=O)[O-])C(=O)O1	ELISA	Histidine-rich protein 2	IC50	36.63 µM
CC(C)C[C@H](NC1CCC2(CC1)OOC1(OO2)C2CC3CC(C2)CC1C3)C(=O)N[C@H](/C=C/S(=O)(=O)c1ccccc1)CCc1ccccc1	fluorescence	Falcipain-2	IC50	10.5 µM
COc1cc(OC)c(C=C2SC(=O)N(Cc3ccccc3)C2=O)c(OC)c1	fluorescence	Falcipain-2	IC50	36.24 µM
CCOP(=O)(CCC(=O)Nc1cccc(CO)c1)OCC	absorbance	PfDXR	IC50	>500 µM
CC(C)C[C@H](NCC1CCC2(CC1)OOC1(OO2)C2CC3CC(C2)CC1C3)C(=O)N[C@H](/C=C/S(=O)(=O)c1ccccc1)CCc1ccccc1	fluorescence	Falcipain-2	IC50	6.672 µM
CC(C)C[C@H](NC(=O)[C@@H]1O[C@H]1C(=O)O)C(=O)NCCCCN=C(N)N	fluorescence	Falcipain-2	IC50	0.047 µM
CCOP(=O)(CC(=O)Nc1cccc(OC)c1)OCC	absorbance	PfDXR	IC50	>500 µM

For reference, 2 entries again:

SMILES | read by | protein | measure | result
COc1cc(OC)c(C=C2SC(=O)N(Cc3ccccc3)C2=O)c(OC)c1 | fluorescence | Falcipain-2 | IC50 | 36.24 µM
O=C(N[C@@H](Cc1ccccc1)C(=O)N[C@H](/C=C/S(=O)(=O)c1ccccc1)CCc1ccccc1)C1CCC2(CC1)OOC1(OO2)C2CC3CC(C2)CC1C3 | fluorescence | Falcipain-2 | IC50 | 9.784 µM

ICn is the concentration giving n% inhibition.